Biological target: native botulinum neurotoxin type A (Clostridium botulinum)

non-immune guinea pig antiserum (polyclonal serum or antibody)
neutralisation assay: survivors on day 2 at 5 pg botulinum toxin/mouse: 0 survivors
